This passage reports Kd results from patent EP0832971B1.

Assay [1] addresses gp120, the major envelope glycoprotein of HIV-I (radioiodinated 125I-gp120; unlabeled purified gp120) (HIV-1). The experiment in a line: gp120 binding, method of Smith et al., Science 238:1704 (1987).
For assay [2] the target is unchanged. The experiment in a line: saturation binding of 125I-gp120 in solution, immunoprecipitation with OKT4, Scatchard analysis.

As to “CD4T, residues 1-368 only (Table 4) (from UniProt P01730 26-393) (receptor)”, the Kd (as a rule, the equilibrium constant for the complex coming apart) in assay [1] was determined as 2.3 nM. The same measure, in the same setting: to “CD42γ1 immunoadheson (CD4 residues 1-180 fused to the constant region of human immunoglobulin γ1; product of pRKCD42γ1) (from UniProt P01730 26-205; P01857 1-330) (Fc fusion)” belongs 1.4 nM; to “CD44γ1 immunoadheson (CD4 residues 1-366 fused to the constant region of human immunoglobulin γ1; product of pRKCD44γ1) (from UniProt P01730 26-391; P01857 1-330) (Fc fusion)”, 1.2 nM. “detergent solubilized intact CD4 (from UniProt P01730 26-458) (receptor)” returned a Kd in assay [2] of 1.3 nM.
